Experimental data from patent US20190002533A1 (Novartis, published 2019).

T1: BKV serotype I VP1 pentamer (BK virus (BKV) serotype I, UniProt P03088 30-297)
T1 construct: also called serotype I pentamers; BKV-VP1 serotype I pentameric protein
T1 chain: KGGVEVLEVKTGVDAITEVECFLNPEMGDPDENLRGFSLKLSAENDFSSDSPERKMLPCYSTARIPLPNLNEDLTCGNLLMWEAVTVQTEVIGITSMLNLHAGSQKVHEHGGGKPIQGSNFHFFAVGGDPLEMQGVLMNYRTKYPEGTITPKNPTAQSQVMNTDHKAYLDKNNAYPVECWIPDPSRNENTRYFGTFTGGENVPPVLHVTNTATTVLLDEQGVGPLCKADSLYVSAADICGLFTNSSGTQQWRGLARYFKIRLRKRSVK

T2: BKV serotype III VLPs (BK virus (BKV) serotype III, UniProt P14996 1-362)
T2 chain: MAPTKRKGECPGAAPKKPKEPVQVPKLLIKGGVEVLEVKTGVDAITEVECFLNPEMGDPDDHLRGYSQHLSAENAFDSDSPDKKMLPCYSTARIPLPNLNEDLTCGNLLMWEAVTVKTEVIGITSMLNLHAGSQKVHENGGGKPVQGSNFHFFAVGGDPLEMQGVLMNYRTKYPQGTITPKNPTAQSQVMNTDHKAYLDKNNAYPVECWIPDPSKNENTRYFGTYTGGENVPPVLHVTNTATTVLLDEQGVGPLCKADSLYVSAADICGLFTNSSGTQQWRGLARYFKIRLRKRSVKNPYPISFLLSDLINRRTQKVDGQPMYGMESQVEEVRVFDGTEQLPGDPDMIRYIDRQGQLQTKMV

T3: BKV serotype IV VP1 pentamer (BK virus (BKV) serotype IV, UniProt P14996 30-297)
T3 construct: also called serotype IV pentamers
T3 chain: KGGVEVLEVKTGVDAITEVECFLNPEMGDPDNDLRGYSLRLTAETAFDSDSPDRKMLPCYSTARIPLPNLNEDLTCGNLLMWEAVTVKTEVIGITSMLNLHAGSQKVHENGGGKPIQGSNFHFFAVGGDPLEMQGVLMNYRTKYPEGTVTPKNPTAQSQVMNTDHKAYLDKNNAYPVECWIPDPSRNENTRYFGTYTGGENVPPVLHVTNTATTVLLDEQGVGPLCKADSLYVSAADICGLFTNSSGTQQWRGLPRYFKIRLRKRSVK


Experiments:
[1] = molecular target: T1, BKV serotype I VP1 pentamer; test: SPR (Biacore): antibody captured via protein A, VP1 pentamers flowed over
BKV serotype III VLPs = molecular target: T2, BKV serotype III VLPs; test: SPR (Biacore): antibody captured via protein A, VLPs flowed over
JCV L55F mutant VLPs = JCV L55F mutant VLPs (JC virus (JCV), UniProt P03089 1-354); test: SET, P8D11 at 9 nM or 1 pM, VLPs titrated, MSD read-out
[2] = molecular target: T3, BKV serotype IV VP1 pentamer; test: not stated in Table 3 (SET on pentamers is the affinity assay of the filing)

Binder	binding result [1]	binding result (BKV serotype III VLPs)	fold lower affinity than for wild type (consensus) and S269F mutant VLPs (JCV L55F mutant VLPs) [fold]	fold greater affinity (reference NEG447 or P165E2, not clear) [2] [fold]
EBB-C1975-A3 (antibody, V domains shown) VH: EVQLVETGGGLVQPGGSLRLSCAASGFTVRRNYMSWVRQAPGKGLEWVSGIYSGGSTYYADSVKGRFTISRDYSKNTLSLQMNTLRVEDTAVYFCAREDEFWSGYSAGVDWGQGTLVTVSS VL: not shown	no binding (tested: not printed)	no binding (tested: not printed)		
EBB-C1975-A7 (antibody, V domains shown) VH: QVQLVESGGGLVQPGGSLRLSCAASGFTVSRNYMSWVRQAPGKGLEWVSGIYSGGSTYYADSVKGRFTISRDYSKNTLSLQMNTLRVEDTAVYFCAREDEFWSGYSAGVDWGQGTLVTVSS VL: not shown	no binding (tested: not printed)	no binding (tested: not printed)		
EBB-C1975-E7 (antibody, human IgG1, kappa, V domains shown) VH: EVQLLESGGGLVRPGGSLRVSCAASGFTVSRNYMSWVRQAPGKGLEWVSGIYGGGRTYYAESVKGRFTISRDYSKNTLFLQMNTLRVEDTALYFCAREDEFWSGYSAGVDWGQGTLVTVSS VL: DIQVTQSPSSLSASVGDRVTITCRASQSISSYLNWYQQEPGKAPKLLIYAASTLQTGVPSRFSGSGSGTDFTLTISSLQPEDFATYYCQQSYNTPRTFGQGTKVEIKR	no binding (tested: not printed)	no binding (tested: not printed)		
P8D11 (antibody, human IgG1, lambda) heavy: not shown light: QSVLTQPPSVSVAPGKTARITCGGDNIGSRPVHWYQQKPGQAPILVVYDDSNRPSGIPERFSGSNSGNTATLTISRVEAGDEADYYCQVWSSSTDHPFGGGTKVTVLGQPKAAPSVTLFPPSSEELQANKATLVCLISDFYPGAVTVAWKADSSPVKAGVETTTPSKQSNNKYAASSYLSLTPEQWKSHRSYSCQVTHEGSTVEKTVAPTECS			~2	
NEG447A (antibody, human IgG1, lambda, V domains shown) VH: QVQLQESGPGLVKPSETLSLTCTVSGGSISRDYWSWVRQPPGAGLEWIGNIYYSGSTNYNPSLKSRVTISVATNKKQFSLKLTSVTAADTAVYYCARVPGCSSTSCIDGWFDPWGQGILVTVSS VL: QSVLTQPPSVSAAPGQKVTISCSGSSSNIGNTYVSWYQQLPGTAPKLLIYDNNKRPSGIPDRFSGSKSGTSATLGITGLQTGDEADYYCGTWDSSLSAWVFGGGTRLTVLG				~10
